Measured values from several laboratories, pooled; numbers as filed in NIAID ChemDB.

Shared fields: whole-cell or culture tests; species: HIV-1

Blank or dashed fields: not listed here. ECn is the concentration giving n% inhibition of infection, replication or growth. Conditions beyond the fields shown may differ between rows. a–b is a range or a potency band. Fold resistance has wild type as its base.

structure | strain | changes | cell line | read by | measure | result
Cc1nc(CN2CCn3c(nc(C(=O)NCc4ccc(F)cc4)c(O)c3=O)C2(C)C)no1 | - | - | MT-4 | p24 | EC95 | <1 µM
CC(C)CN(CC(O)C(=O)N1CSC[C@H]1C(=O)NC(C)(C)C)S(=O)(=O)c1ccccc1 | IIIB | - | CEM | p24 | EC90 | 1 µM
Cc1cc(S(N)(=O)=O)ccc1NC(=O)COc1ccc(Cl)cc1C(=O)c1cccc(C#N)c1 | HXB2 | RT-V108I Y181C | HeLa + HELA CD4+ | β-galactosidase | fold resistance | ~1
Cc1cc(CNC(=O)c2nc3n(c(=O)c2O)CCNCC3N(C)C(=O)C(=O)N(C)C)ccc1F | - | - | MT-4 | p24 | EC95 | <1 µM
Cc1cc(C#N)cc(C(=O)c2cc(Cl)ccc2OCC(=O)Nc2cnc(S(N)(=O)=O)cc2C)c1 | HXB2 | RT-P225H | HeLa + HELA CD4+ | β-galactosidase | fold resistance | ~1
CC1(C)c2nc(C(=O)NCc3ccc(F)cc3)c(O)c(=O)n2CCN1Cc1ccccn1 | - | - | MT-4 | p24 | EC95 | <1 µM
Cc1cc(OCCCS(N)(=O)=O)ccc1NC(=O)COc1ccc(Cl)cc1C(=O)c1cc(F)cc(C(F)(F)F)c1 | HXB2 | RT-E138K | HeLa + HELA CD4+ | β-galactosidase | fold resistance | ~1
CN(C)C(=O)C(=O)N(C)CC1c2nc(C(=O)NCc3ccc(F)cc3)c(O)c(=O)n2CCN1C | - | - | MT-4 | p24 | EC95 | 1–10 µM
Cc1cc(S(N)(=O)=O)ccc1NC(=O)COc1ccc(Cl)cc1C(=O)c1cc(F)cc(F)c1 | HXB2 | RT-V108I | HeLa + HELA CD4+ | β-galactosidase | fold resistance | ~1
Nc1ccc(S(=O)(=O)NC(Cc2ccccc2)C(F)(F)C(=O)[C@@H](Cc2ccccc2)NC(=O)O[C@H]2CCOC2)cc1 | IIIB | - | CEM | p24 | EC90 | 1 µM
CC(C)=CCOc1cc(NC(=S)c2ccsc2C)ccc1Cl | Pyridinone-resistant (RT Y181C K103N) | RT-K103N Y181C | CEM + CEM-SS | cytopathic effect / XTT | fold resistance | >250
CC(C)=CCOc1cc(NC(=S)c2ccoc2C)ccc1Cl | NL4-3 | RT-K103N | CEM + CEM-SS | p24 | fold resistance | 17
O=C(c1ccccc1)N(CCc1ccccc1)C[C@H](O)CN(CC1CCCC1)S(=O)(=O)Cc1cccc2n[nH]nc12 | IIIB | - | CEM | p24 | EC90 | 1 µM
Cc1ccc(CNC(=O)c2nc3n(c(=O)c2O)CCNCC3N(C)C(=O)C(=O)N(C)C)cc1Cl | - | - | MT-4 | p24 | EC95 | <1 µM
CC(C)CN(C(=O)C(=O)C(=O)C(Cc1ccccc1)NC(=O)OC(C)(C)C)S(=O)(=O)c1ccccc1 | IIIB | - | CEM | p24 | EC90 | 1 µM
CC(C)=CCOc1cc(NC(=S)c2ccoc2C)ccc1Cl | NL4-3 (RT Y188C) | RT-Y188C | CEM + CEM-SS | cytopathic effect / XTT | fold resistance | 1.67
O=C1Nc2ccc(Cl)cc2[C@@](/C=C/C2CC2)(C(F)(F)F)N1 | - | RT-G190S | - | - | fold resistance | 60
Cc1ccc(C)n1-c1ccc(C(=O)O)c(O)c1 | 93TH051 X4R5 CLADE E | - | PBMC/5.25M7 | luciferase / cell fusion | EC90 | 17.76 µM
COc1ccnc2[nH]cc(C(=O)C(=O)N3C4CCC3CN(C(=O)c3ccccc3)C4)c12 | SF162 | - | TZM-bl | luciferase | EC90 | 32 µM
O=C(N[C@@H](Cc1ccccc1)C(=O)C(F)(F)CN(Cc1ccccc1)S(=O)(=O)c1ccccc1)O[C@H]1CCOC1 | IIIB | - | CEM | p24 | EC90 | 1 µM
COc1ccnc2[nH]cc(C(=O)C(=O)N3C4CCCC3CN(C(=O)c3ccccc3)C4)c12 | AC10 | - | TZM-bl | luciferase | EC99 | 22 µM
COc1ccc(S(=O)(=O)N(CC2CCCC2)C[C@@H](O)CN(CCc2ccccc2)C(=O)OC2COCOC2)cc1 | IIIB | - | CEM | p24 | EC90 | 0.1 µM
Cc1cc(C#N)cc(C(=O)c2cc(Cl)ccc2OCC(=O)Nc2ccc(OCCCN3CC=CC3)cc2C)c1 | HXB2 | RT-V106I | HeLa + HELA CD4+ | β-galactosidase | fold resistance | ~1
Nc1ccc(S(=O)(=O)N(CCC(O)CN(CC2CCCC2)S(=O)(=O)c2ccccc2)CC2CCCC2)cc1 | IIIB | - | CEM | p24 | EC90 | 1 µM
CCC(=O)c1ccc(F)c([C@@H]2C[C@@H]2NC(=O)Nc2ccc(C#N)cn2)c1O | LAI | NNRTI-resistant (RT L100V) | TZM-bl | β-galactosidase / luminescence | fold resistance | 7.5
COc1ccc(S(=O)(=O)N(CCc2ccccc2)CC[C@H](O)CN(CC(C)C)S(=O)(=O)c2ccc(OC)cc2)cc1 | IIIB | - | CEM | p24 | EC90 | 1 µM
Cc1cc2cn[nH]c2cc1NC(=O)COc1ccc(Cl)cc1C(=O)c1cccc(C#N)c1 | HXB2 | RT-V108I Y181C | HeLa + HELA CD4+ | β-galactosidase | fold resistance | ~1
CC(C)=CCN1Cc2cccc3[nH]c(=O)n(c23)CC1C | UC82-R (RT-Y181C) | RT-Y181C | CEM + CEM-SS | cytopathic effect / XTT | fold resistance | 44
Cc1cc(C)cc(C(=O)c2cc(Cl)ccc2OCC(=O)Nc2ccc(S(N)(=O)=O)cc2C)c1 | HXB2 | RT-V106A Y181C | HeLa + HELA CD4+ | β-galactosidase | fold resistance | ~1
O=C1Nc2ccc(Cl)cc2[C@@](C#CC2CC2)(C(F)(F)F)N1 | - | RT-Y188C | - | - | fold resistance | <6.32
COc1ccc(S(=O)(=O)N(CC(C)C)C[C@@H](O)C[C@@H](CNCC(C)C)Cc2ccccc2)cc1 | IIIB | - | CEM | p24 | EC90 | 1 µM

Again, the opening 3 rows:

structure,strain,changes,cell line,read by,measure,result
Cc1nc(CN2CCn3c(nc(C(=O)NCc4ccc(F)cc4)c(O)c3=O)C2(C)C)no1,-,-,MT-4,p24,EC95,<1 µM
CC(C)CN(CC(O)C(=O)N1CSC[C@H]1C(=O)NC(C)(C)C)S(=O)(=O)c1ccccc1,IIIB,-,CEM,p24,EC90,1 µM
Cc1cc(S(N)(=O)=O)ccc1NC(=O)COc1ccc(Cl)cc1C(=O)c1cccc(C#N)c1,HXB2,RT-V108I Y181C,HeLa + HELA CD4+,β-galactosidase,fold resistance,~1